Experimental data from PubChem BioAssay AID1259309 (ICCB-Longwood Screening Facility, Harvard Medical School, 2017).
Only a part is listed here, and it is no random draw. Calls of active or inactive are those of the source. No stated cut-off is given here; in the data, active means growth inhibition above about 68%; inactive means the rest.

Assay: growth inhibition of ugtP-null S. aureus, primary screen, RN4220 ugtP deletion, OD600 (AID 1259309);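 further: plate controls were untreated wells for no effect and antibiotic for full effect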
Details: 16 h, active compounds read high

SMILES	growth inhibition
COc1cc(C(=O)NCC2(N3CCOCC3)CCCCC2)cc(OC)c1C	inactive: 0.717%
O=C(NCC1(N2CCOCC2)CCCCC1)c1cc(Br)ccc1Cl	inactive: 2.46%
COc1ccc(C(=O)NCC2(N3CCOCC3)CCCCC2)cc1OC	inactive: 8.6%
CCOC(=O)N1CCC(Nc2ccc(C)cc2)CC1	inactive: 11.8%
CCc1cc(C(=O)NCC2(N3CCCCC3)CCCCC2)sc1C	inactive: 10.4%
O=C(OC1CN2CCC1CC2)C1c2ccccc2C=Cc2ccccc21 (stereo not given)	inactive: 0.116%
N#Cc1ccc(C(=O)NCC2(N3CCCCC3)CCCCC2)cc1	inactive: 2.05%
CC(C)(C)OC(=O)N1CCC(N(C(=O)c2ccccc2)c2ccc(Cl)cc2)CC1	inactive: 29%
CN(C)C1(CNC(=O)c2cccc(C#N)c2)CCCCC1	inactive: -0.268%
CCCN1CCC(Nc2cc(OC)cc(OC)c2)CC1	inactive: 6.13%
c1ccc(CN2CCC(Nc3ccccc3)CC2)cc1	inactive: 6.85%
CC(=O)N(c1ccccc1)C1CCNCC1	inactive: 3.38%
COc1cc(OC)cc(C(=O)NCC2(N3CCCCC3)CCCCC2)c1	inactive: 7.08%
Fc1ccccc1NC1CCN(Cc2ccccc2)CC1	inactive: 1.4%
Cc1ccc(C(=O)NCC2(N3CCCCC3)CCCCC2)o1	inactive: 2.63%
Cc1ccc(NC2(C#N)CCN(Cc3ccccc3)CC2)cc1	inactive: -0.433%
CCN1CCC(Nc2cccc(F)c2)CC1	inactive: 6.79%
Cc1ccccc1NC1(C#N)CCN(Cc2ccccc2)CC1	inactive: 3.25%
CN(C)c1ccc(C(=O)NCC2(N3CCCCC3)CCCCC2)cc1	inactive: 6.15%
Cn1c(=O)[nH]cc(N(CCCl)CCCl)c1=O	inactive: 1.86%
O=C(NCC1(N2CCCCC2)CCCCC1)c1ccco1	inactive: 2.57%
CN1CCC(Nc2ccc(F)c(Cl)c2)CC1	inactive: -3.36%
CCOc1ncccc1C(=O)NCC1(N2CCOCC2)CCCCC1	inactive: 2.85%
O=C(O)C1(Nc2ccccc2)CCN(Cc2ccccc2)CC1	inactive: 5.47%

SMILES	growth inhibition
CC(C)(C)OC(=O)N1CCC(Nc2ccccc2)CC1	inactive: -10.1%
CCCOc1ccc(C(=O)NCC2(N(C)C)CCCCC2)cc1	inactive: 13.9%
COc1cccc(C(=O)N(c2cc(C)cc(C)c2)C2CCN(C(=O)OC(C)(C)C)CC2)c1	inactive: -2.79%
COc1cc(OC)cc(C(=O)NCC2(N3CCOCC3)CCCCC2)c1	inactive: 2.9%
CN1CCC(Nc2ccc(Cl)cc2)CC1	inactive: 3.42%
CC(C)(C)OC(=O)N1CCC(N(C(=O)c2ccccc2)c2ccc(F)cc2)CC1	inactive: 4.85%
COc1ccc(C(=O)NCC2(N3CCCCC3)CCCCC2)c(OC)c1OC	inactive: -11.2%
COc1ccc(C(=O)NCC2(N3CCCCC3)CCCCC2)cc1	inactive: 16%
O=C(NCC1(N2CCCCC2)CCCCC1)c1cccs1	inactive: 2.54%
O=C(NCC1(N2CCCCC2)CCCCC1)c1ccc(=O)[nH]c1	inactive: 5.67%
Cc1cccc(NC2(C#N)CCN(Cc3ccccc3)CC2)c1	inactive: 4%
CSc1ccccc1C(=O)NCC1(N2CCCCC2)CCCCC1	inactive: 11.4%
Cc1cc(C)cc(N(C(=O)c2ccccc2)C2CCN(C(=O)OC(C)(C)C)CC2)c1	inactive: 20.7%
O=C(NCC1(N2CCCCC2)CCCCC1)c1ccc(Cl)nc1	inactive: 0.438%
O=C(NCC1(N2CCOCC2)CCCCC1)c1cc2ccccc2o1	inactive: 5.87%
COc1ccc(Cl)cc1C(=O)NCC1(N2CCOCC2)CCCCC1	inactive: -2.8%
O=C(NCC1(N2CCCCC2)CCCCC1)c1ccc(Cl)s1	inactive: 8.16%
N#CC1(Nc2ccccc2)CCN(Cc2ccccc2)CC1	inactive: 0.237%
O=C(OC1CN2CCC1CC2)C1c2ccccc2Oc2ccccc21 (stereo not given)	inactive: 8.04%
CCOC(=O)N1CCC(Nc2ccc(OC)cc2)CC1	inactive: 4.42%
CCOc1ccc(C)cc1CN(CCCl)CCCl	inactive: 3.26%
CCOC(=O)N1CCC(Nc2ccc(F)cc2)CC1	inactive: 10.6%
COc1ccc(NC2CCN(CCc3ccccc3)CC2)c(OC)c1	inactive: 7.53%
CCCCOc1ccc(C(=O)NCC2(N3CCOCC3)CCCCC2)cc1	inactive: 4.92%

SMILES	growth inhibition
O=P1(N(CCCl)CCCl)SCCCS1	inactive: 4.09%
O=C(NCC1(N2CCCCC2)CCCCC1)c1ccc(F)cc1	inactive: 2.93%
CCOC(=O)N1CCC(Nc2cccc(C)c2)CC1	inactive: 0.945%
COc1cc(C(=O)NCC2(N(C)C)CCCCC2)ccc1OC(F)F	inactive: 1.23%
O=C(NCC1(N2CCCCC2)CCCCC1)c1ccc(OC(F)F)cc1	inactive: -2.47%
N#CC1(Nc2ccccc2)CCN(CCc2ccccc2)CC1	inactive: 1.82%
CCN1CCC(Nc2ccc(Cl)cc2)CC1	inactive: 1.18%
O=C(NCC1(N2CCCCC2)CCCCC1)c1cccc([N+](=O)[O-])c1	inactive: 9.64%
CSc1ccc(C(=O)NCC2(N3CCOCC3)CCCCC2)cc1	inactive: 6.38%
O=C(NCC1(N2CCCCC2)CCCCC1)c1cccc(C(F)(F)F)c1	inactive: 9.02%
O=C(NCC1(N2CCOCC2)CCCCC1)c1cc(=O)[nH]c2ccccc12	inactive: 6.57%
COc1cc(C(=O)NCC2(N3CCCCC3)CCCCC2)ccc1OC(F)F	inactive: 8.89%
CC(C)c1ccc(C(=O)NCC2(N3CCOCC3)CCCCC2)cc1	inactive: 9.44%
COc1ccc(NC2CCN(C(=O)OC(C)(C)C)CC2)cc1	inactive: -9.88%
CN1CCN(CCOC(=O)C(O)(c2ccccc2)c2ccccc2)CC1	inactive: 2.65%
CC(C)c1ccc(NC2CCN(C(=O)OC(C)(C)C)CC2)cc1	inactive: 6.46%
CN(C)c1cccc(C(=O)NCC2(N3CCCCC3)CCCCC2)c1	inactive: 8.62%
COc1ccc(CN(CCCl)CCCl)cc1Cl	inactive: 0.498%
O=C(NCC1(N2CCOCC2)CCCCC1)c1cc(F)c(F)cc1Cl	inactive: 6.13%
COc1cc(OC)c(C(=O)NCC2(N(C)C)CCCCC2)cc1OC	inactive: 7.51%
O=C(NCC1(N2CCCCC2)CCCCC1)c1cncc(Br)c1	inactive: -3.16%
CCCOc1ccc(C(=O)NCC2(N(C)C)CCCCC2)cc1OC	inactive: 16.8%
